Anti-infective test results gathered from many reports (values: NIAID ChemDB through PubChem).

Common to all: tests in culture; species: HIV-1

ECn: concentration that inhibits the pathogen or its effect by n%.

C=C(C)OC(=O)N1c2cc(Cl)ccc2NC(=S)C1(C)C ; measure: EC50 ; read by: cytopathic effect ; cells: MT-4 ; strain: Recombinant ; changes: RT-V106A ; result: 0.06 µM
NC(=O)C(c1ccccc1)(c1ccccc1)[C@H]1CCCN(CCc2ccc3c(c2)CCO3)C1 ; measure: EC50 ; read by: cytopathic effect / XTT ; cells: MT-2 ; strain: NL4-3 ; result: 1.3 µM
Cc1nnc(C(C)C)n1C1C[C@H]2CC[C@@H](C1)N2CC[C@H](NC(=O)C1CCC(F)(F)CC1)c1ccccc1 ; measure: EC50 ; read by: p24 / ELISA ; cells: PBMC ; strain: CC1/85 maraviroc-resistant ; result: >20 µg/mL
Cc1ccc(-n2c(C)nnc2SCC(=O)Nc2ccccc2Br)cc1 ; measure: EC50 ; read by: luciferase ; cells: HeLa + HeLa-JC53 ; strain: NL4-3 ; changes: RT-K103N Y181C ; result: 0.076 µM
c1cc(CN2CCCNCCNCCCNCC2)ccc1CN1CCCNCCNCCCNCC1 ; measure: EC50 ; read by: p24 ; cells: PBMC ; strain: 92US077 CLADE B R5X4 ; result: <0.1 µM
NCCCCN(C[C@H]1Cc2ccccc2CN1Cc1cocn1)[C@H]1CCCc2cccnc21 ; measure: EC50 ; read by: MTS ; cells: MAGI-CCR5 ; strain: IIIB ; result: 0.04 µM
Nc1nc2c(ncn2[C@H]2CO[C@@H](CO)O2)c(=O)[nH]1 ; measure: EC50 ; cells: MT-2 ; result: 0.105 µM
Nc1ccn([C@@H]2O[C@H](CO)C[C@@H]2F)c(=O)n1 ; measure: EC50 ; read by: p24 ; cells: CEM ; result: 4 µM
Cc1ccc2cc(Cl)cc(-n3c(C)nnc3SCC(=O)Nc3ccc(S(N)(=O)=O)cc3Cl)c2n1 ; measure: EC50 ; read by: luciferase ; cells: HeLa + HeLa-JC53 ; strain: NL4-3 ; changes: RT-Y188L ; result: 0.1 µM
Nc1nc(N)c2ncn([C@H]3CO[C@@H](CO)O3)c2n1 ; measure: EC90 ; cells: MT-2 ; result: 29 µM
C[C@H]1O[C@@H](O[C@H]2[C@@H](O)C[C@H](O[C@H]3[C@@H](O)C[C@H](O[C@H]4CC[C@@]5(C)[C@H](CC[C@@H]6[C@@H]5C[C@@H](O)[C@]5(C)[C@@H](C7=CC(=O)OC7)CC[C@]65O)C4)O[C@@H]3C)O[C@@H]2C)C[C@H](O)[C@@H]1O ; measure: EC50 ; cells: HeLa ; strain: LAI ; result: 0.045 µM
CN(C)C(=O)Oc1nsnc1-c1ccc(Cl)cc1Cl ; measure: EC50 ; read by: cytopathic effect / MTT ; cells: MT-4 ; strain: IIIB-R (RT-Y181C) ; changes: RT-Y181C ; result: >77 µM
Nc1ncnc2c1ncn2[C@@H]1O[C@H](OCP(=O)(O)O)C=C1F ; conditions: 4 d ; measure: EC50 ; read by: p24 / ELISA / antigen ; cells: PBMCs ; strain: UG-92-024 (subtype D) ; result: 12.6 µM
O=C(Nc1nc2c(Cl)cccc2s1)c1ccc([N+](=O)[O-])s1 ; conditions: pseudotyped ; measure: EC50 ; read by: flow cytometry ; cells: CEM-GXR ; strain: NL4-3 ; result: 0.55 µM
Nc1ccn(C[C@@H](CO)OCP(=O)(O)O)c(=O)n1 ; measure: EC50 ; read by: plaque count ; cells: HELA-T4 + HeLa ; strain: IIIB ; result: 2.7 µM
CC(C)[C@H](NC(=O)OCc1ccccc1)C(=O)N[C@@H](Cc1ccc(OCc2ccccc2)cc1)C(=O)C(F)(F)C(=O)NCc1ccccc1 ; measure: EC50 ; read by: MTT ; cells: MT-4 ; strain: RF ; result: 0.6 µM
Cn1c2ccccc2c2c1cc(C#N)c(=O)n2-c1ccc([N+](=O)[O-])cc1 ; measure: EC50 ; cells: MT-2 ; strain: HXB2 ; changes: TAM2 (D67N K70R T215F K219Q) ; result: 262.3 µM
Cc1cn([C@H]2C[C@H](N=[N+]=[N-])[C@@H](CO)O2)c(=O)[nH]c1=O ; measure: EC90 ; read by: p24 ; cells: MT-2 ; strain: IIIB ; result: 0.0489 µg/mL
CC(C)(C)NC(=O)[C@@H]1C[C@@H]2CCCC[C@@H]2CN1C[C@@H](O)[C@H](Cc1ccccc1)NC(=O)[C@H](CC(N)=O)NC(=O)c1ccc2ccccc2n1 ; measure: EC50 ; read by: RT activity ; cells: HuT-78 + HUT 78 ; strain: MVP-899 ; result: <0.02 µM
Cc1cc(=O)c2ccc(N=C=S)cc2o1 ; measure: EC50 ; read by: p24 / ELISA ; cells: CEM-GFP ; strain: NL4-3 ; result: 0.173 µM
Cc1ccc(-n2c(C)nnc2SCC(=O)Nc2ccccc2Cl)cc1 ; measure: EC50 ; read by: luciferase ; cells: HeLa + HeLa-JC53 ; strain: NL4-3 ; changes: RT-K103N Y181C ; result: 0.15 µM
CCOCn1c(Cc2ccccc2)c(C(C)C)c(=O)[nH]c1=O ; measure: EC50 ; read by: syncytia ; cells: CEM ; strain: IIIB ; changes: RT-E138K ; result: 0.018 µg/mL
Cc1ccc(-n2c(C)nnc2SCC(=O)Nc2cccc(Cl)c2)cc1 ; measure: EC50 ; read by: luciferase ; cells: HeLa + HeLa-JC53 ; strain: NL4-3 ; result: >10 µM
C[C@H](Cn1cnc2c(N)ncnc21)OCP(=O)(O)O ; measure: EC50 ; read by: p24 ; cells: MT-2 ; strain: SUM9 (WT) ; result: 2 µM
Cc1cccc(C)c1CNC(=O)[C@H]1N(C(=O)[C@@H](O)C[C@@H](Cc2ccccc2)C(=O)N[C@H]2c3ccccc3C[C@H]2O)CSC1(C)C ; measure: EC50 ; read by: p24 ; cells: MT-4 ; changes: PR-K60C ; result: <0.125 µM
NCCCCN(C[C@H]1Cc2ccccc2CN1CC(=O)N1CCOCC1)[C@H]1CCCc2cccnc21 ; measure: EC50 ; read by: MTS ; cells: MAGI-CCR5 ; strain: IIIB ; result: 0.08 µM
CCCCNC(=O)Oc1nsnc1-c1c(Cl)cccc1Cl ; measure: EC50 ; read by: cytopathic effect / MTT ; cells: MT-4 ; strain: IIIB-R (RT-Y181C) ; changes: RT-Y181C ; result: >139 µM
Cc1ccnc2c1NC(=O)c1cccnc1N2C1CC1 ; measure: EC50 ; read by: cytopathic effect / MTT ; cells: MT-4 ; strain: NL4-3 ; result: 0.02 µg/mL
Cc1occc1C(=S)Nc1ccc(Cl)c(C(=O)OCC(C)C)c1 ; measure: EC50 ; read by: syncytia ; cells: CEM ; strain: IIIB ; result: 0.023 µM
Cc1cn([C@H]2C[C@H](N=[N+]=[N-])[C@@H](CO)O2)c(=O)[nH]c1=O ; measure: EC50 ; cells: MT-4 ; strain: NL4-3 ; result: 0.005 µM
NC(=O)NCCCCN(C[C@H]1Cc2ccccc2CN1)[C@H]1CCCc2cccnc21 ; measure: EC50 ; read by: MTS ; cells: MAGI-CCR5 ; strain: IIIB ; result: 0.21 µM
Cc1cn([C@@H]2O[C@H](CO)[C@@H](N=[N+]=[N-])[C@@H]2F)c(=O)[nH]c1=O ; measure: EC50 ; read by: p24 ; cells: CEM ; result: >100 µM
CC(C)=CCN1c2cc(Cl)cc3[nH]c(=S)n(c23)C[C@@H]1C ; measure: EC50 ; cells: MT-4 ; changes: RT-M41L T215Y K101E ; result: <1.5 µM
CCCCCCN(C)C(=O)Oc1nsnc1-c1c(Cl)cccc1Cl ; measure: EC50 ; read by: cytopathic effect / MTT ; cells: MT-4 ; strain: IIIB-R (RT-Y181C) ; changes: RT-Y181C ; result: >19 µM
Cc1ccnc2c1NC(=O)c1cccnc1N2C1CC1 ; measure: EC50 ; cells: MT-4 ; strain: IIIB Recombinant ; result: 0.05 µM
Cc1ccc(-n2cnnc2SCC(=O)Nc2ccc(C)cc2Br)cc1 ; measure: EC50 ; read by: luciferase ; cells: HeLa + HeLa-JC53 ; strain: NL4-3 ; changes: RT-K103N Y181C ; result: >10 µM
CC(C)NCCCCN(C[C@H]1Cc2ccccc2CN1)[C@H]1CCCc2cccnc21 ; measure: EC50 ; read by: MTS ; cells: MAGI-CCR5 ; strain: IIIB ; result: 0.04 µM
CCCCN(CC)C(=O)Oc1nsnc1-c1c(Cl)cccc1Cl ; measure: EC50 ; read by: cytopathic effect / MTT ; cells: MT-4 ; strain: IIIB-R (RT-Y181C) ; changes: RT-Y181C ; result: >44 µM
Cc1ncn(-c2ncc(F)c3c(C(=O)C(=O)N4CCC(C(c5ccccc5)c5nccn5C)CC4)c[nH]c23)n1 ; measure: EC50 ; read by: luciferase / reporter gene / single cycle ; cells: MT-2 ; strain: LAI ; result: <0.5 µM
Cc1ccnc2c1NC(=O)c1cccnc1N2C1CC1 ; measure: EC50 ; read by: cytopathic effect ; cells: MT-2 ; strain: A17-(RT-K103N Y181C) NNRTI-resistant ; changes: RT-K103N Y181C ; result: 3 µM
CC(C)Nc1cccnc1N1CCN(C(=O)c2cc3cc(NS(C)(=O)=O)ccc3[nH]2)CC1 ; measure: EC50 ; read by: syncytia ; cells: CEM ; strain: IIIB ; result: 0.006 µg/mL
Cc1cc(C#N)cc(C)c1Oc1cc(Nc2ccc(C#N)cc2)c(N)cc1[N+](=O)[O-] ; measure: EC50 ; cells: MT-2 ; strain: RF ; result: 18.9 µM
CN(C)C(=O)NCCCCN(C[C@H]1Cc2ccccc2CN1)[C@H]1CCCc2cccnc21 ; measure: EC50 ; read by: MTS ; cells: MAGI-CCR5 ; strain: IIIB ; result: 0.42 µM
CC(C)=CCOc1cc(NC(=S)c2ccoc2C)ccc1Cl ; measure: EC50 ; read by: cytopathic effect ; cells: MT-4 ; result: 0.004 µM
Cc1nnc(SCC(=O)Nc2ccc(S(N)(=O)=O)cc2Cl)n1-c1cccc2cccnc12 ; measure: EC50 ; read by: luciferase ; cells: HeLa + HeLa-JC53 ; strain: NL4-3 ; changes: RT-Y188L ; result: 2.4 µM
O=c1[nH]cnc2c1ncn2[C@H]1CC[C@@H](CO)O1 ; measure: EC50 ; cells: MT-2 ; result: 0.72 µM
CO[C@H]1/C=C/O[C@@]2(C)Oc3c(C)c(O)c4c(O)c(c5c(c4c3C2=O)NC2(CCN(CC(C)C)CC2)N=5)=NC(=O)/C(C)=C\C=C\[C@H](C)[C@H](O)[C@@H](C)[C@@H](O)[C@@H](C)[C@H](OC(C)=O)[C@@H]1C ; measure: EC50 ; read by: RT activity ; cells: PBMC ; result: <10 µg/mL
O=C(O)[C@@H](CS(=O)(=O)c1ccc([N+](=O)[O-])cc1)NC(=O)C1(c2ccc3ccccc3c2)CCN(Cc2ccc3ccccc3c2)CC1 ; conditions: pseudotyped ; measure: EC50 ; read by: luciferase ; cells: TZM-bl ; strain: NL4-3 ; result: 16.96 µM
Nc1ccn([C@H]2CC[C@@H](CO)O2)c(=O)n1 ; measure: EC50 ; read by: syncytia ; cells: C8166 ; strain: IIIB ; result: 0.05 µM
O=Nc1c(-c2c(O)[nH]c3ccccc23)[nH]c2ccccc12 ; measure: EC50 ; read by: p24 ; cells: PBMC ; strain: RT-M41L L74V V106A T215Y RTMDR ; result: <1 µM
CC(C)=CCN1Cc2cc(Cl)cc3[nH]c(=O)n(c23)C[C@@H]1C ; measure: EC50 ; read by: cytopathic effect ; cells: MT-4 ; result: 0.07 µM
CN1Cc2ccccc2C[C@@H]1CN(CCCCN)[C@H]1CCCc2cccnc21 ; measure: EC50 ; read by: MTS ; cells: MAGI-CCR5 ; strain: IIIB ; result: 0.02 µM
Fc1cccc(F)c1C1SCc2nc3ccccc3n21 ; measure: EC50 ; read by: cytopathic effect / XTT ; cells: CEM + CEM-SS ; strain: RF ; result: 1.28 µM
CCOCn1c(Cc2ccccc2)c(C(C)C)c(=O)[nH]c1=O ; measure: EC50 ; read by: cytopathic effect ; cells: MT-4 ; strain: Recombinant ; changes: RT-V106A P225H ; result: 1.6 µM
C[C@H](Cn1cnc2c(N)ncnc21)OCP(=O)(O)O ; conditions: 4 d ; measure: EC50 ; read by: p24 / ELISA / antigen ; cells: PBMCs ; strain: LJM (subtype B) ; result: 2 µM
Cc1cn([C@@H]2O[C@H](CO[Si](C)(C)C(C)(C)C)C3(OS(=O)(=O)C=C3N)[C@H]2O[Si](C)(C)C(C)(C)C)c(=O)n(C)c1=O ; measure: EC50 ; read by: syncytia ; cells: CEM ; strain: IIIB ; changes: RT-M184V ; result: 0.019 µg/mL
NCCCCN(C[C@@H]1NCCc2ccccc21)[C@H]1CCCc2cccnc21 ; measure: EC50 ; read by: MTS ; cells: MAGI-CCR5 ; strain: IIIB ; result: 0.45 µM

Conditions beyond the fields shown may differ between rows.